These results are taken from PMC7144554, “2-(Arylamino)-6-(trifluoromethyl)nicotinic Acid Derivatives: New HIV-1 RT Dual Inhibitors Active on Viral Replication” (Molecules, 2020).

As a reminder, the IC50 is the concentration at which inhibition is half-maximal.

The structures appear in SMILES notation.

The test deals with HIV-1 RT-associated RNase H activity (wt RT) (Human immunodeficiency virus type 1 group M subtype B, UniProt P04585). Kind of test: HIV-1 DNA polymerase-independent RNase H activity, wt RT. To be noted: read-out: RNase H IC50.

For the molecule `CCOC(=O)C(=O)CC(=O)/C=C/c1cccn1Cc1ccccc1Cl`, the IC50 was 8.5 µM.
